Reference: article PMC11822712, “Improving the Activity and Selectivity of a Scorpion-Derived Peptide, A3a, against Acinetobacter baumannii through Rational Design” (ACS Omega, 2025)

Experiments:
[1] = system: G. mellonella larvae; experiment: G. mellonella burn model, toxicity in burnt uninfected larvae; type: in vivo, Galleria mellonella; conditions: 12.5 mg/kg topical on burn, 96 h, 37 °C, n = 30
Experimental: Standardized G. mellonella larvae were obtained from the FABI Biocontrol center at the University of Pretoria. The larvae were at the life cycle stage not requiring feeding. Prior to use, larvae were sorted into Petri dishes (10 larvae per plate) lined with Whatman filter paper (Fisher, UK) and stored at 28 °C until use. A burn was induced with a heated nail head to achieve a burn wound area of approximately 2 mm^2. Immediately after burn, the wound was inoculated with a single colony of A. baumannii NICD 15283 applied directly to the burn site with an inoculation loop. Peptides were prepared in PBS to final concentrations of 12.5 mg/kg and 15 mg/kg based on the average weight of the group of larvae treated. The peptides were applied topically 1 h after infection by applying a 5 μL drop directly to the burned area. Untreated controls received 5 μL of PBS or polymyxin B (10 mg/kg) instead. Larvae were left at 37 °C and survival was monitored over 96 h. Mortality was recorded as complete melanization of the larval body and complete loss of motility. Three independent experiments were conducted on three different occasions using 10 larvae per treatment/control group (n = 30).

[2] = system: HaCat cell; conditions: from HaCat IC50 values ref 14; cited from earlier work
Experimental: Previously, we amidated the C-terminus of A3 to improve its activity against Gram-negative bacteria.[14] A3, the amidated analogue A3a, and the parent peptide AamAP1 were evaluated for antibacterial activity against a panel of ESKAPE pathogens.

SMILES: CC[C@H](C)[C@H](NC(=O)[C@H](C)NC(=O)[C@H](CCCCN)NC(=O)[C@H](CCCNC(=N)N)NC(=O)[C@@H](NC(=O)[C@H](CC(C)C)NC(=O)[C@H](CO)NC(=O)[C@H](Cc1ccccc1)NC(=O)[C@H](CC(C)C)NC(=O)[C@@H](N)Cc1ccccc1)[C@@H](C)CC)C(=O)NCC(=O)NCC(=O)N[C@@H](CC(C)C)C(=O)N[C@@H](Cc1c[nH]c2ccccc12)C(=O)N[C@@H](CO)C(=O)N[C@@H](C)C(=O)N[C@@H](Cc1ccccc1)C(=O)N[C@@H](CCCCN)C(N)=O [A3a[I14W]]
- survival of burnt but uninfected larvae [1]: 46.7%

SMILES: CC[C@H](C)[C@H](NC(=O)[C@H](C)NC(=O)[C@H](CCCCN)NC(=O)[C@H](CCCNC(=N)N)NC(=O)[C@@H](NC(=O)[C@H](CC(C)C)NC(=O)[C@H](CO)NC(=O)[C@H](Cc1ccccc1)NC(=O)[C@H](CC(C)C)NC(=O)[C@@H](N)Cc1ccccc1)[C@@H](C)CC)C(=O)NCC(=O)NCC(=O)N[C@@H](CC(C)C)C(=O)N[C@H](C(=O)N[C@@H](CO)C(=O)N[C@@H](C)C(=O)N[C@@H](Cc1ccccc1)C(=O)N[C@@H](CCCCN)C(N)=O)[C@@H](C)CC [A3a]
- survival of burnt but uninfected larvae [1]: 80%
- decrease in cytotoxicity compared with A3 [2]: > 2 fold

SMILES: CC[C@H](C)[C@H](NC(=O)[C@H](C)NC(=O)[C@H](CCCCN)NC(=O)[C@H](CCCCN)NC(=O)[C@@H](NC(=O)[C@H](CC(C)C)NC(=O)[C@H](CO)NC(=O)[C@H](Cc1ccccc1)NC(=O)[C@H](CC(C)C)NC(=O)[C@@H](N)Cc1ccccc1)[C@@H](C)CC)C(=O)NCC(=O)NCC(=O)N[C@@H](CC(C)C)C(=O)N[C@H](C(=O)N[C@@H](CO)C(=O)N[C@@H](C)C(=O)N[C@@H](Cc1ccccc1)C(=O)N[C@@H](CCCCN)C(N)=O)[C@@H](C)CC [A3a[R7K]]
- survival of burnt but uninfected larvae [1]: 56.7%
